One experiment deals with wild-type (Fusarium GAO) (Gibberella zeae, UniProt P0CS93). Kind of experiment: ABTS-HRP activity assay of purified wild-type GAO towards various substrates. To be noted: for Relative rate of reaction, Wild-Type GAO: relative to D-galactose (=100); for Wild-Type Activity: substrate concentration in parentheses in each cell.
The target in the next experiment is mutant (RQW) GAO (Gibberella zeae, UniProt P0CS93, G236E/M111V/N576D/Q447T/R371K/S51P/V535A/W331F). The settings on record: for Mutant Activity: mutant RQW, substrate concentration in parentheses in each cell; for Relative rate of reaction, Mutant M-RQW: relative to D-galactose (=100).
In another experiment the target is M-RQW (Gibberella zeae, UniProt P0CS93, G236E/M111V/N576D/Q447T/R371K/S51P/V535A/W331F).

`OCc1ccncc1`: at wild-type (Fusarium GAO), the “Relative rate of reaction, Wild-Type GAO” value was 1.3 and the “Wild-Type Activity” value is listed as 7.74 (100 mM) U/mg. At mutant (RQW) GAO, the “Mutant Activity” value is 41.7 (0.5 mM) U/mg and the “Relative rate of reaction, Mutant M-RQW” value is recorded as 81000.

For `OC[C@H]1O[C@@H](O[C@H]2[C@H](O)[C@@H](O)[C@H](O)O[C@@H]2CO)[C@H](O)[C@@H](O)[C@H]1O`, on wild-type (Fusarium GAO), the “Relative rate of reaction, Wild-Type GAO” value stood at 48 and the “Wild-Type Activity” value is 58.3 (50 mM) U/mg. Besides, at mutant (RQW) GAO, the “Mutant Activity” value is 6.76(67.8 mM) U/mg and the “Relative rate of reaction, Mutant M-RQW” value is reported as 18.7.

As to `CCCCCCC(C)O` (centres unmarked), the “Wild-Type Activity” value at wild-type (Fusarium GAO) is 0 (Saturated) U/mg. Moreover, the “Mutant Activity” value on mutant (RQW) GAO was 2.85(Saturated) U/mg.

Turning to `OCc1ccccn1`, the “Relative rate of reaction, Wild-Type GAO” value at wild-type (Fusarium GAO) is 0.6. In addition, the “Relative rate of reaction, Mutant M-RQW” value at mutant (RQW) GAO is recorded as 180000.

`CO[C@@H]1CC(O)[C@H](O)C(CO)O1` (some centres unmarked): the “Wild-Type Activity” value on wild-type (Fusarium GAO) was 0 (50 mM) U/mg. At mutant (RQW) GAO, the “Mutant Activity” value is recorded as 0.98 (0.42 M) U/mg.

Turning to 2-butanol, the “oxidation product with M-RQW by GC-MS” value on M-RQW (50 mM substrate, room temperature) is 2-butanone.

3-Buten-2-ol: at wild-type (Fusarium GAO), the “Relative rate of reaction, Wild-Type GAO” value is 0 and the “Wild-Type Activity” value was 3.52 × 10^−2(0.5 M) U/mg. At mutant (RQW) GAO, the “Mutant Activity” value is listed as 3.52 (0.5 M) U/mg and the “Relative rate of reaction, Mutant M-RQW” value turned out to be 6.9.

For the compound `CO[C@@H]1OC(CO)[C@H](O)C(O)C1O` (some centres unmarked), at wild-type (Fusarium GAO), the “Wild-Type Activity” value is 155 (50 mM) U/mg. The “Mutant Activity” value on mutant (RQW) GAO is 9.21 (0.1 M) U/mg.

Consider 2-Propanol, for which, on wild-type (Fusarium GAO), the “Relative rate of reaction, Wild-Type GAO” value was 0 and the “Wild-Type Activity” value is listed as 2.09 × 10^−2(0.5 M) U/mg. Besides, at mutant (RQW) GAO, the “Mutant Activity” value was 2.98 (0.5 M) U/mg and the “Relative rate of reaction, Mutant M-RQW” value is 5.7.

For the compound `CO[C@H]1CC(O)[C@H](O)C(CO)O1` (some centres unmarked), at wild-type (Fusarium GAO), the “Relative rate of reaction, Wild-Type GAO” value is 0 and the “Wild-Type Activity” value was 0 (1 M) U/mg. Besides, the “regioselectivity of oxidation by M-RQW (NMR)” value on M-RQW (200 mM substrate) was “No oxidation was detected at the other positions”. At mutant (RQW) GAO, the “Mutant Activity” value was 1.32 (0.42 M) U/mg and the “Relative rate of reaction, Mutant M-RQW” value came out at 3.3.

In the case of `CO[C@@H]1OC(C)[C@@H](O)C(O)C1O` (some centres unmarked), the “Wild-Type Activity” value at wild-type (Fusarium GAO) is reported as 0 (1 M) U/mg. Moreover, the “Mutant Activity” value at mutant (RQW) GAO is on record as 0.10 (0.42 M) U/mg.

With `CO[C@@H]1OC(CO)[C@@H](O)C(O)C1O` (some centres unmarked), the “Wild-Type Activity” value at wild-type (Fusarium GAO) was 0 (1 M) U/mg. Besides, on mutant (RQW) GAO, the “Mutant Activity” value is given as 0.683 (0.6 M) U/mg.

Turning to D-Fructose, the “Wild-Type Activity” value on wild-type (Fusarium GAO) was 0 (1 M) U/mg. Moreover, at mutant (RQW) GAO, the “Mutant Activity” value is on record as 8.10 (0.25 M) U/mg.

Regarding `CO[C@H]1OC(C)[C@@H](O)C(O)C1O` (some centres unmarked), the “Wild-Type Activity” value at wild-type (Fusarium GAO) is reported as 0 (1 M) U/mg. In addition, the “Mutant Activity” value on mutant (RQW) GAO is recorded as 0.34 (0.42 M) U/mg.

`O=CC[C@H](O)[C@H](O)CO`: the “Wild-Type Activity” value at wild-type (Fusarium GAO) was 0 (50 mM) U/mg. For the same compound, the “Mutant Activity” value at mutant (RQW) GAO is 1.40 × 10^−4(0.25 M) U/mg.

Turning to `C[C@@H](O)[C@H](O)[C@H](O)[C@@H](O)C=O`, at wild-type (Fusarium GAO), the “Wild-Type Activity” value was 8.56 (50 mM) U/mg. In addition, on mutant (RQW) GAO, the “Mutant Activity” value was 2.29 × 10^−3(0.27 M) U/mg.

With `OCc1cccnc1`, the “Relative rate of reaction, Wild-Type GAO” value on wild-type (Fusarium GAO) stood at 5. At mutant (RQW) GAO, the “Relative rate of reaction, Mutant M-RQW” value came out at 35000.

In the case of `CO[C@H]1OC(CO)[C@@H](O)C(O)C1O` (some centres unmarked), the “Wild-Type Activity” value on wild-type (Fusarium GAO) is 0 (0.5 M) U/mg. Besides, the “Mutant Activity” value on mutant (RQW) GAO is 0.19 (0.42 M) U/mg.

For the compound Allyl Alochol, at wild-type (Fusarium GAO), the “Relative rate of reaction, Wild-Type GAO” value is 0.3 and the “Wild-Type Activity” value is recorded as 0.946 (0.5 M) U/mg. Further, at mutant (RQW) GAO, the “Mutant Activity” value is listed as 121 (50 mM) U/mg and the “Relative rate of reaction, Mutant M-RQW” value is listed as 2500.

For the compound `O=C(CO)CO`, at wild-type (Fusarium GAO), the “Relative rate of reaction, Wild-Type GAO” value is on record as 200 and the “Wild-Type Activity” value was 41.7 (3 mM) U/mg. Besides, on wild-type (Fusarium GAO) (wild-type enzyme), the Km worked out at 17 mM. For the same compound, the “decrease in Km” value on mutant (RQW) GAO (M-RQW versus wild-type enzyme) was “more than 6 fold”. At mutant (RQW) GAO, the “Mutant Activity” value is 52.2 (0.3 mM) U/mg and the “Relative rate of reaction, Mutant M-RQW” value was determined as 1600.

Broadly, the Km is the concentration of substrate that gives half-maximal velocity.

Values taken from patent US7220563B2 (priority 2002, dated 2007).
